Measurements published in PMC3215231, “Arcanolysin is a cholesterol-dependent cytolysin of the human pathogen Arcanobacterium haemolyticum” (BMC Microbiology, 2011).

Target: T1, ALN (arcanolysin), His-ALN (Arcanobacterium haemolyticum, UniProt D7BPC7)
T1 construct: gene Arch_1062
Details: 5 HU toxin, 0.01-1 μM cholesterol in ethanol, 30 min at room temperature; human blood

CC(C)CCC[C@@H](C)[C@H]1CC[C@H]2[C@@H]3CC=C4C[C@@H](O)CC[C@]4(C)[C@H]3CC[C@]12C [cholesterol]
% activity retained at 0.5 μM cholesterol: 41.4%
